Experimental data: PubChem BioAssay AID504761 (Drosophila RNAi Screening Center, 2011)

Test: 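Genome-wide fly cell screen for genes dengue virus requires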 (primary screen)
System: D.Mel-2 cells from Drosophila
Knock-down reagent: long dsRNA against Drosophila genes
Conditions: infection with dengue virus type 2; dose and infection time not stated
Detection: 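Cells stained for dengue envelope protein and imaged; percent of infected cells per well on duplicate plates, ranked by infection, with stained nuclei counted for cell number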
Direction: infection score: higher = more virus-infected cells; cell count: higher = more cells in the well
Active means: 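Very low infection ranking in both replicate wells (chance probability at most 0.065), then a retest showing infection dropped 1.5-fold or more at p below 0.05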
Meaning of the calls: active = confirmed: knock-down lowers infection; inactive = not picked or not confirmed
In all, the deposit lists about 22,000 reagents; this is a random part of those that have a named target and a result. In the full data, 116 (0.52%) got an active call. 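Calls depend on retest data that are not deposited; infection was ranked per plate without normalising between plates; the unit of the infection score is not given.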 The raw values are shown without normalisation. Reagents against one gene are numbered here. Not given: the amount of reagent, the time to read-out.

| target gene | reagent no. | infection score, replicate 1 | infection score, replicate 2 | cell count, replicate 1 | cell count, replicate 2 | activity call |
| --- | --- | --- | --- | --- | --- | --- |
| Cog1 (GeneID 41479) | 1 | 6.51 | 9.63 | 6635 | 6522 | inactive |
| CG16727 (GeneID 42338) | 1 | 2.15 | 1.24 | 6463 | 6521 | inactive |
| CG16727 (GeneID 42338) | 2 | 7.32 | 4.57 | 6641 | 6953 | inactive |
| psd (GeneID 33830) | 1 | 0.92 | 8.04 | 6091 | 5486 | inactive |
| psd (GeneID 33830) | 2 | 13.9 | 11.1 | 6129 | 6117 | inactive |
| CG17715 (GeneID 3355129) | 1 | 14.1 | 17.8 | 6110 | 5067 | inactive |
| ss (GeneID 41988) | 1 | 5.45 | 10.7 | 6133 | 5919 | inactive |
| Atx-1 (GeneID 31624) | 1 | 7.08 | 7.99 | 6839 | 6855 | inactive |
| CG18754 (GeneID 59145) | 1 | 2.24 | 17.7 | 5719 | 3010 | inactive |
| CG3529 (GeneID 39093) | 1 | 4.34 | 1.46 | 6292 | 6237 | inactive |
| CG3529 (GeneID 39093) | 2 | 3.23 | 7.87 | 6260 | 5975 | inactive |
| Lcp9 (GeneID 37963) | 1 | 2.29 | 12.6 | 6667 | 6421 | inactive |
| CG14431 (GeneID 31639) | 1 | 2.81 | 2.24 | 6474 | 6971 | inactive |
| CG14431 (GeneID 31639) | 2 | 3.86 | 3.54 | 6427 | 6353 | inactive |
| stai (GeneID 33863) | 1 | 2.2 | 0.88 | 6355 | 6503 | inactive |
| stai (GeneID 33863) | 2 | 9.6 | 11.6 | 4282 | 6094 | inactive |
| SCAR (GeneID 34519) | 1 | 7.59 | 2.27 | 5453 | 5677 | inactive |
| CG32161 (GeneID 317890) | 1 | 3.29 | 5.68 | 6285 | 7230 | inactive |
| CG3588 (GeneID 31278) | 1 | 3.81 | 2.85 | 5538 | 841 | inactive |
| CG3588 (GeneID 31278) | 2 | 3.74 | 5.06 | 6603 | 6484 | inactive |
| meng (GeneID 33948) | 1 | 1.11 | 2.38 | 6500 | 6769 | inactive |
| meng (GeneID 33948) | 2 | 21.4 | 25.3 | 5690 | 4544 | inactive |
| CG18747 (GeneID 59143) | 1 | 8.97 | 10.5 | 6320 | 5962 | inactive |
| CG18747 (GeneID 59143) | 2 | 7.91 | 1.74 | 5856 | 5869 | inactive |
| Arp6 (GeneID 32514) | 1 | 1.92 | 3.76 | 6572 | 6361 | inactive |
| CG8119 (GeneID 32500) | 1 | 8.97 | 4.26 | 6117 | 6411 | inactive |
| CG8119 (GeneID 32500) | 2 | 11.9 | 13.3 | 3861 | 6662 | inactive |

4 entries already listed, arranged by “infection score, replicate 1”, lowest first:
| target gene | reagent no. | infection score, replicate 1 | infection score, replicate 2 | cell count, replicate 1 | cell count, replicate 2 | activity call |
| --- | --- | --- | --- | --- | --- | --- |
| CG32161 (GeneID 317890) | 1 | 3.29 | 5.68 | 6285 | 7230 | inactive |
| CG3588 (GeneID 31278) | 1 | 3.81 | 2.85 | 5538 | 841 | inactive |
| SCAR (GeneID 34519) | 1 | 7.59 | 2.27 | 5453 | 5677 | inactive |
| stai (GeneID 33863) | 2 | 9.6 | 11.6 | 4282 | 6094 | inactive |

Continued.
| target gene | reagent no. | infection score, replicate 1 | infection score, replicate 2 | cell count, replicate 1 | cell count, replicate 2 | activity call |
| --- | --- | --- | --- | --- | --- | --- |
| vn (GeneID 38657) | 1 | 3.26 | 18.8 | 6835 | 6691 | inactive |
| vn (GeneID 38657) | 2 | 4.23 | 7.98 | 6697 | 6401 | inactive |
| Lmx1a (GeneID 39406) | 1 | 5.41 | 10.8 | 6689 | 6727 | inactive |
| Lmx1a (GeneID 39406) | 2 | 9.78 | 9.39 | 5317 | 5966 | inactive |
| Ugt303B1 (GeneID 42775) | 1 | 1.53 | 15.5 | 6847 | 4143 | inactive |
| AANATL4 (GeneID 37213) | 1 | 2.95 | 4.3 | 6618 | 5999 | inactive |
| hpRNA:CR18854 (GeneID 10178800) | 1 | 26.1 | 20.8 | 5537 | 5461 | inactive |
| hpRNA:CR18854 (GeneID 10178800) | 2 | 4.15 | 6.97 | 6429 | 6309 | inactive |
| CG10764 (GeneID 36962) | 1 | 7.29 | 16 | 6490 | 6531 | inactive |
| yellow-b (GeneID 35005) | 1 | 39.5 | 2.71 | 6077 | 6375 | inactive |
| iav (GeneID 31621) | 1 | 11.4 | 7.88 | 6263 | 6665 | inactive |
| iav (GeneID 31621) | 2 | 9.18 | 6.88 | 6558 | 6106 | inactive |
| CG31204 (GeneID 318625) | 1 | 11.3 | 2.07 | 4626 | 6997 | inactive |
| CG31204 (GeneID 318625) | 2 | – | – | 332 | 362 | inactive |
| gfzf (GeneID 40858) | 1 | 1.65 | 8.07 | 6169 | 5889 | inactive |
| gfzf (GeneID 40858) | 2 | 7.36 | 5.42 | 6497 | 6584 | inactive |
| Cul4 (GeneID 35780) | 1 | 10.6 | 4.54 | 5539 | 5996 | inactive |
| Cul4 (GeneID 35780) | 2 | 10.4 | 8.76 | 5506 | 5733 | inactive |
| GstZ1 (GeneID 41132) | 1 | 2.28 | 9.74 | 6921 | 7239 | inactive |
| baf (GeneID 34095) | 1 | 1.23 | 3.12 | 6033 | 6320 | inactive |
| baf (GeneID 34095) | 2 | 13 | 6.68 | 5599 | 6434 | inactive |
| Ubc2 (GeneID 34487) | 1 | 5.39 | 6.18 | 6453 | 6697 | inactive |
| Ubc2 (GeneID 34487) | 2 | 1.1 | 3.32 | 6755 | 7136 | inactive |
| Ubc2 (GeneID 34487) | 3 | 15.6 | – | 4971 | 324 | inactive |
| CG4853 (GeneID 36974) | 1 | 6.27 | 5.46 | 1484 | 2108 | inactive |
| CG4853 (GeneID 36974) | 2 | 16.6 | 7.98 | 5079 | 5561 | inactive |
| CG14456 (GeneID 40481) | 1 | 7.9 | 5.71 | 6307 | 6389 | inactive |
| CG14456 (GeneID 40481) | 2 | 15.5 | 9.31 | 5858 | 6013 | inactive |
| Sfxn1-3 (GeneID 40552) | 1 | 1.93 | 4.76 | 5790 | 6365 | inactive |
| Hsp67Ba (GeneID 39076) | 1 | 0.43 | 1.94 | 6048 | 6348 | inactive |
| Hsp67Ba (GeneID 39076) | 2 | 1.75 | 1.49 | 6439 | 6026 | inactive |
